The target of the test is LmNMT (Leishmania major, UniProt Q4Q5S8). Briefly: NMT enzyme inhibition assay (non-radioactive), L. major NMT. The class given is biochemical. Particulars: read-out: IC50 LmNMT.

Chains of the proteins cited; added tags and fusions are not shown. Residues count along the entry.
UniProt Q4Q5S8, 5-421 limits assumed: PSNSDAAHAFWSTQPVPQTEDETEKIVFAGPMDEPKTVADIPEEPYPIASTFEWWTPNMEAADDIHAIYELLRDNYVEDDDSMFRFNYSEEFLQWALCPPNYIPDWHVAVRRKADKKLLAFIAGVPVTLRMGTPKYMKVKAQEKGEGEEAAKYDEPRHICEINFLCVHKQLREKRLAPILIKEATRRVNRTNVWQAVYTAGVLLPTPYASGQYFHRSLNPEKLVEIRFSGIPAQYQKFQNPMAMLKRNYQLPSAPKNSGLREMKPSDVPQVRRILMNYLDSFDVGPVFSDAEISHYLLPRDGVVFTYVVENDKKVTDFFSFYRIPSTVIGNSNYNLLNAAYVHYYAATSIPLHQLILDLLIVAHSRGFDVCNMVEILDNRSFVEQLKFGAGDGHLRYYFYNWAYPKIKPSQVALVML

Each structure is given as a SMILES string.

Consider `O=C(Cc1ccc(F)cc1)Nc1ccc2[nH]cc(C3CCNCC3)c2c1`, for which the half-inhibitory concentration (IC50) (commonly the concentration needed to halve the response being measured) was determined as 550 nM.
